Data on 1 compound can be found in PMC5559489 (Scientific Reports, 2017).

Values joined by “and” are separate entries in the source; they are usually repeats but may differ in a detail not shown here. Equal entries are not always repeated.

Assay [1] has as its target seasonal influenza A(H3N2) virus neuraminidase (NA) (Influenza A virus, UniProt V9SU56). The class given is biochemical.
The target of assay [2] is seasonal influenza B virus neuraminidase (NA) (Influenza B virus, UniProt C0LT34). The assay is classed as biochemical.

Regarding `CCOC(=O)C1=C[C@@H](OC(CC)CC)[C@H](NC(C)=O)[C@@H](N)C1` [oseltamivir, Oseltamivir], in assay [1], the “Number of resistant viruses/Number of tested viruses, Seasonal A(H3N2)” value was 0/98 and 0/27 and 0/36 and 0/21 and 0/48. In assay [2], the “Number of resistant viruses/Number of tested viruses, Seasonal B” value was 0/279 and 0/79 and 0/10 and 0/26 and 0/54.
